The record followed here is paper PMC10691279.

The experiment addresses Collagen 1 (UniProt P02452). The experiment in a line: quartz crystal microbalance with dissipation.

As for “ECF843 (recombinant human lubricin) (from UniProt Q92954 25-1404) (natural protein)”, the time constant was determined as 37 s.
